Experimental data reported in patent US20250263469A1, “POLYPEPTIDES TARGETING SARS-COV-2 AND RELATED COMPOSITIONS AND METHODS” (HOSPITAL FOR SICK CHILDREN, published 2025).

What was measured:
Test in all cases: heat map 'Binding effect': affinity for mutated RBD against WT RBD
A475V (RBD mutations) = A475V (RBD mutations) (SARS-CoV-2)
N439K (RBD mutations) = N439K (RBD mutations) (SARS-CoV-2)
V483A (RBD mutations) = V483A (RBD mutations) (SARS-CoV-2)
L452R (RBD mutations) = L452R (RBD mutations) (SARS-CoV-2)

Row | Binder | Affinity change vs WT RBD (A475V (RBD mutations)) [fold] | Affinity change vs WT RBD (N439K (RBD mutations)) [fold] | Affinity change vs WT RBD (V483A (RBD mutations)) [fold] | Affinity change vs WT RBD (L452R (RBD mutations)) [fold]
1 | mAb 80 (antibody, V domains shown) VH: QVQLVQSGAEVKKPGSSVKVSCKASGGTFNRYAFSWVRQAPGQGLEWMGGIIPIFGTANYAQKFQGRVTITADESTSTAYMELSSLRSEDTAVYYCARSTRELPEVVDWYFDLWGRGTLVTVSS VL: DIVMTQSPDSLAVSLGERATINCKSSQSVLYSSNNKNYLAWYQQKPGQPPKLLIYWASTRESGVPDRFSGSGSGTDFTLTISSLQAEDVAVYYCQQYYSAPLTFGGGTKVEIKR | 0.2 | -0.7 | 0.6 | –
2 | mAb 298 (antibody, V domains shown) VH: QVQLVQSGAEVKKPGASVKVSCKASGGTFSTYGISWVRQAPGQGLEWMGWISPNSGGTDLAQKFQGRVTMTRDTSTSTVYMELSSLRSEDTAVYYCASDPRDDIAGGYWGQGTLVTVSS VL: not shown | -4.3 | -0.4 | -1.9 | -2.4
